The text below walks through data of paper PMC8846325, “A Photoactivable Natural Product with Broad Antiviral Activity against Enveloped Viruses, Including Highly Pathogenic Coronaviruses” (Antimicrobial Agents and Chemotherapy, 2022).

In data set [1] the test system is HCoV-229E. Nature of the data set: HCoV-229E-Luc infection inhibition luciferase assay. Conditions: selective index against HCoV-229E. In kind it is cell-based.
The test system of data set [2] is HCoV-229E. Nature of the data set: Cryo-EM of virions after osmotic shock. Conditions: 10 μM, 400 mM NaCl.

For part of these data: Which two values form the index is not stated here.

As to `C=Cc1c(C)c2cc3nc(c4c5[nH]c(cc6nc(cc1[nH]2)C(C)=C6CC)c(C)c5C(=O)C4)[C@@H](CCC(=O)O)[C@@H]3C` [PyroPba, pyropheophorbide a], the SI in data set [1] turned out to be 7.6.

As for N-methyl protoporphyrin IX, the SI in data set [1] is listed as above 66.1.

Consider `C=Cc1c(C)c2cc3nc(c4c5[nH]c(cc6nc(cc1[nH]2)C(C)=C6CC)c(C)c5C(=O)[C@@H]4C(=O)OC)[C@@H](CCC(=O)O)[C@@H]3C` [Pba, pheophorbide a], for which the SI in data set [1] is 11.2. The “virion shape after osmotic shock, light” value in data set [2] (30 min light exposure) is “no membrane deformation was observed”. The “virion shape after osmotic shock, dark” value in data set [2] (dark) is reported as “a similar alteration of viral shape was observed”.

The compound `C=CC1=C(C)c2cc3[n-]c(cc4[n-]c(cc5nc(cc1n2)C(C)=C5C=C)c(C)c4CCC(=O)O)c(CCC(=O)O)c3C.[Zn+2]` [Zn protoporphyrin IX, Zn-protoporphyrin IX] came in with an SI in data set [1] of 21.0.

In data set [1], `C=Cc1c(C)c2cc3nc(c(CC(=O)O)c4[nH]c(cc5nc(cc1[nH]2)C(C)=C5CC)c(C)c4C(=O)O)[C@@H](CCC(=O)O)[C@@H]3C` [Chlorin e6, chlorin e6] gave an SI of 29.7.

The compound `CCC1=C(C)c2cc3[nH]c(cc4nc(cc5c(CCC(=O)O)c(C)c(cc1n2)n5C)C(CCC(=O)O)=C4C)c(C)c3CC` [N-Methyl mesoporphyrin IX, N-methyl mesoporphyrin IX] displayed an SI in data set [1] above 64.

Compound HPPH displayed an SI in data set [1] of 7.1.
